Test results as given in patent US5283321A (priority 1986, dated 1994).

Test: Control, Sepharose 4 B gel blocked with ethanolamine
Settings: 0.5 mg peptide applied; CNBr sites blocked with ethanolamine; irrigated with PBS

With `CC(C)[C@H](NC(=O)[C@H](CO)NC(=O)[C@H](CCCNC(=N)N)NC(=O)[C@H](CCCNC(=N)N)NC(=O)[C@H](CO)NC(=O)[C@@H](NC(=O)[C@H](Cc1ccc(O)cc1)NC(=O)[C@@H]1CCCN1C(=O)[C@H](CC(N)=O)NC(=O)[C@@H]1CCCN1C(=O)[C@H](CC(N)=O)NC(=O)[C@H](C)NC(=O)[C@H](CCCNC(=N)N)NC(=O)[C@@H](NC(=O)[C@H](CCC(N)=O)NC(=O)[C@@H](N)CCCCN)[C@@H](C)O)[C@@H](C)O)C(=O)N[C@@H](C)C(=O)N[C@@H](CO)C(=O)O` [The synthetic peptide, H--Lys--Gln--Thr--Arg--Ala--Asn--Pro--Asn--Pro--Tyr--Thr----Ser--Arg--Arg--Ser--Val--Ala--Ser--OH] the “Synthesized peptide recovered from the eluate of control Sepharose 4 B column” value was “All of the synthesized peptide was recovered from the eluate”.
